Measured values as given in PMC10471735.

How the values were obtained:
Assay in all cases: ITC
[1] = target: MIC2 TSR6 (597–651) S605 mutant (Toxoplasma gondii)
[2] = target: MIC2 TSR6 (597–651) H620A (Toxoplasma gondii)
[3] = target: MIC2 TSR6 (597–651) F637A (Toxoplasma gondii)
[4] = target: MIC2 TSR6 (597–651) V623A (Toxoplasma gondii)
[5] = target: MIC2 TSR6 (597–651) T636A (Toxoplasma gondii)

MIC2-associated protein (M2AP) core β-domain, residues 47–228, N127R, S177N (domain or fragment)
fold decrease in affinity against WT TSR6 [1]: 2 fold | fold decrease in binding against WT TSR6 [2]: > 5000 fold | fold decrease in affinity against WT TSR6 [3]: 4 fold | fold decrease in affinity against WT TSR6 [4]: 3 fold | fold decrease in affinity against WT TSR6 [5]: 10 fold
